Laboratory results: PubChem BioAssay AID624099 (ICCB-Longwood, 2012)
In all, the deposit lists about 21,000 reagents; below is an unselected part. 497 of them (2.4%) count as active. 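Higher z means weaker E2 silencing; only reporter increases were scored, and knock-downs that hurt cell survival may mask genuine repressor factors.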 Unmarked entries are inactive.

Assay: 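Human genes that papillomavirus E2 requires to repress the HPV18 LCR promoter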 (primary screen)
Cell system: human C33A cervical carcinoma cells (HPV-negative) stably expressing BPV1 E2 and an HPV18 LCR luciferase reporter
Reagent: siRNA pool against human genes, 40 nM
Time to read-out: 72 h
Measurement: 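Per-well luciferase luminescence, z-scored on each plate against the plate mean and SD with control wells left out, then averaged across three replicate plates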
Scale: mean z-score and z-score: higher = stronger reporter signal, weaker E2 silencing
Hit rule: 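Mean z ≥ 2 together with z ≥ 2 in two or more of the three replicates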

CARD18 (caspase recruitment domain family member 18) | mean z-score: -0.98; z-score, replicate A: -1.22; z-score, replicate B: -1.4; z-score, replicate C: -0.33
LOC388305 (retired record) | mean z-score: 0.09; z-score, replicate A: -0.14; z-score, replicate B: 0.15; z-score, replicate C: 0.26
CHMP3 (charged multivesicular body protein 3) | mean z-score: -0.34; z-score, replicate A: -0.17; z-score, replicate B: -0.37; z-score, replicate C: -0.46
ALS2 (alsin Rho guanine nucleotide exchange factor ALS2) | mean z-score: -0.46; z-score, replicate A: -0.6; z-score, replicate B: -0.46; z-score, replicate C: -0.34
ALDH1L1 (aldehyde dehydrogenase 1 family member L1) | mean z-score: -0.4; z-score, replicate A: -0.16; z-score, replicate B: -0.34; z-score, replicate C: -0.69
DLEC1 (DLEC1 cilia and flagella associated protein) | mean z-score: 3.73 (active); z-score, replicate A: 3.96; z-score, replicate B: 3.81; z-score, replicate C: 3.44
LOC400552 (retired record) | mean z-score: 0.53; z-score, replicate A: 0.15; z-score, replicate B: 1.07; z-score, replicate C: 0.39
DNAJB3P (DnaJ heat shock protein family (Hsp40) member B3, pseudogene) | mean z-score: 0.13; z-score, replicate A: 0.02; z-score, replicate B: -0.01; z-score, replicate C: 0.39
ASIC2-AS1 (ASIC2 antisense RNA 1) | mean z-score: 1.6; z-score, replicate A: 1.4; z-score, replicate B: 1.99; z-score, replicate C: 1.43
LOC388489 (retired record) | mean z-score: 0.52; z-score, replicate A: 0.57; z-score, replicate B: 0.51; z-score, replicate C: 0.48
SURF6 (surfeit 6) | mean z-score: -0.31; z-score, replicate A: 0.2; z-score, replicate B: -0.59; z-score, replicate C: -0.55
COBL (cordon-bleu WH2 repeat protein) | mean z-score: -0.22; z-score, replicate A: 0.05; z-score, replicate B: -0.29; z-score, replicate C: -0.41
NPAS4 (neuronal PAS domain protein 4) | mean z-score: -2.36; z-score, replicate A: -2.59; z-score, replicate B: -2.24; z-score, replicate C: -2.25
CEACAM3 (CEA cell adhesion molecule 3) | mean z-score: 0.67; z-score, replicate A: 0.66; z-score, replicate B: 0.72; z-score, replicate C: 0.64
SYNPO (synaptopodin) | mean z-score: 0.31; z-score, replicate A: -0.02; z-score, replicate B: 0.92; z-score, replicate C: 0.03
VASN (vasorin) | mean z-score: -0.23; z-score, replicate A: -0.33; z-score, replicate B: -0.26; z-score, replicate C: -0.09
KIR3DL2 | mean z-score: 0.05; z-score, replicate A: -0.05; z-score, replicate B: 0.09; z-score, replicate C: 0.11
FAM187B (family with sequence similarity 187 member B) | mean z-score: 1.3; z-score, replicate A: 1.56; z-score, replicate B: 0.78; z-score, replicate C: 1.56
RCVRN (recoverin) | mean z-score: -0.28; z-score, replicate A: -0.33; z-score, replicate B: -0.32; z-score, replicate C: -0.2
ARL10 (ARF like GTPase 10) | mean z-score: 0.11; z-score, replicate A: 0.09; z-score, replicate B: 0.21; z-score, replicate C: 0.02
MYT1L (myelin transcription factor 1 like) | mean z-score: -0.06; z-score, replicate A: -0.05; z-score, replicate B: -0.12; z-score, replicate C: -0.02

Only “mean z-score”, for 3 of the entries above:
NPAS4 (neuronal PAS domain protein 4) = -2.36
CEACAM3 (CEA cell adhesion molecule 3) = 0.67
SYNPO (synaptopodin) = 0.31
